The exact form of at least one protein or probe is not confirmed.
Target: SARS-CoV-2 N NTD (anisotropy preparation) (SARS-CoV-2) (UniProt P0DTC9)
Test: fluorescence anisotropy
Details: no ligand; recombinant protein; label: 5'-hexachlorofluorescein

UCUCUAAACG [10-mer ssRNA] showed a Kd of 8.3 µM.
